Measurements from “University of Dundee, Small-Polar-MMV Screening Library” (2021), ChEMBL document CHEMBL3988442.

The filed quantity is “Percent Effect” (%). The controls that fix the scale are not given in the record; negative values are as filed. Many other results are left out here, so strong results are more common than in the screen. A dash means the value is not listed here; it may have been measured.

Mtb glucose medium: 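Growth of Mycobacterium tuberculosis over 3 days (7H9 medium with glucose and tyloxapol); the read-out is not stated. Compounds at 500 µM. Higher reads as more growth inhibition (inferred: compounds with an IC50 in retests scored well above the rest). Size under these conditions: about 18,000 compounds, about 1,400 of them at 50% or above in at least one test.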
Mtb cholesterol medium: 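Phenotypic screen: M. tuberculosis growth, cholesterol and DPPC medium, 4 days; the read-out is not stated. Concentration: 500 µM. The record gives no direction; compounds that gave an IC50 in retests scored well above the rest, so higher reads as more growth inhibition. Of about 18,000 compounds tested this way, about 900 (5%) reached 50% or more in at least one test.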

For Cc1ccc(C(N)CN2CCOCC2)cc1 (stereo not drawn) the result was Mtb glucose medium: 73.72%; Mtb cholesterol medium: 57.64%.
For NC(=O)[C@@H]1CCCN1 the result was Mtb glucose medium: 3.771%.
For N#CCCN(CCC#N)C(=O)COC(=O)c1ccoc1 the result was Mtb cholesterol medium: -10.77%.
For CCn1cnnc1CNc1ncccc1F the result was Mtb glucose medium: 12.47%; Mtb cholesterol medium: 9.125%.
For CC(C)COCCN1CCCN(C)C(=O)C1 the result was Mtb glucose medium: 14.08%.
For CC(=O)c1cccc(CN2CCCC(O)(CO)CC2)c1 (stereo not drawn) the result was Mtb glucose medium: 0.3595%.
For O=C(C1CCCOC1)N1CCCc2c(F)cccc21 (stereo not drawn) the result was Mtb glucose medium: 49.48%.
For CC(CN)N(C)C(=O)Cc1ccc(F)c(F)c1 (stereo not drawn) the result was Mtb glucose medium: -6.146%.
For NC(=O)C1CCCN1S(=O)(=O)Cc1cc(Cl)ccc1F (stereo not drawn) the result was Mtb glucose medium: 9.89%.
For CCOCC1CCN(C(=O)c2ccc(F)c(O)c2)CC1 the result was Mtb cholesterol medium: 29.42%.
For Cn1cncc1CCNC(=O)C1CCCCO1 (stereo not drawn) the result was Mtb glucose medium: 2.824%.
For COc1ncccc1C(=O)NCCn1ccnc1 the result was Mtb glucose medium: -6.495%; Mtb cholesterol medium: -11.1%.
For CN(C)C(=O)OC1CCNC1 (stereo not drawn) the result was Mtb glucose medium: 2.913%.
For CN(C)Cc1ccccc1CNC(=O)C1CC1 the result was Mtb glucose medium: -1.278%.
For Nc1ccn(Cc2ccccc2)n1 the result was Mtb cholesterol medium: 19.05%.
For CCOCCSc1nnnn1CC1CCCO1 (stereo not drawn) the result was Mtb glucose medium: 37%; Mtb cholesterol medium: 42.79%.
For CC(=O)c1c(F)cccc1N1CCOCC1 the result was Mtb cholesterol medium: 51.26%.
For Cc1cccc2c1C(=O)NCCN2 the result was Mtb glucose medium: -0.9214%.
For N#CCCN1CCCN(Cc2ccc(C#N)cc2)CC1 the result was Mtb glucose medium: 15.86%.
For O=C(Nc1cc(Cl)ccc1F)C1=COCCO1 the result was Mtb glucose medium: 68.53%; Mtb cholesterol medium: 71.69%.
For Cc1cc(C)cc(C(=O)N2CCN(CCC#N)CC2)c1 the result was Mtb glucose medium: 11.58%.
For OC1CN(Cc2ccccc2)C1 the result was Mtb cholesterol medium: 12.2%.
For OC1(Cc2ccncc2)CCNCC1 the result was Mtb glucose medium: 6.059%.
For O=C(NC1CC1)c1cc(O)nc2ccc(F)cc12 the result was Mtb cholesterol medium: -27.53%.
For c1ccc2[nH]c([C@H]3CCCN3)nc2c1 the result was Mtb cholesterol medium: 9.638%.
For CC(OC(=O)c1ccc2c(c1)OCO2)C(=O)NC1CC1 (stereo not drawn) the result was Mtb cholesterol medium: -1.749%.
For CC(C)N(C)C(=O)N(C)CC(=O)Nc1ccc(Br)cn1 the result was Mtb cholesterol medium: -4.689%.
For C=C(C)CN1CCN(c2ccccn2)CC1 the result was Mtb cholesterol medium: 72.67%.
For CN(CCNC(=O)c1cc[nH]n1)Cc1ccccc1 the result was Mtb glucose medium: 11.26%; Mtb cholesterol medium: 14.01%.
For NCc1cccc(C(N)=O)n1 the result was Mtb glucose medium: 7.574%.
For CC(C)(C)OC(=O)Nc1ccc(NC(=O)C2CC2)cn1 the result was Mtb glucose medium: -1.325%.
For CC1=CCN(Cc2cccc(OCC(N)=O)c2)CC1 the result was Mtb glucose medium: -23.83%.
For COc1cccc(NC(CN)c2ccccc2)c1 (stereo not drawn) the result was Mtb glucose medium: 69.75%.
For Cc1ncc(S(C)(=O)=O)c(NCc2snnc2C)n1 the result was Mtb glucose medium: 10.5%.
For COCC(C)(CCO)NCc1cc(C)no1 (stereo not drawn) the result was Mtb cholesterol medium: -6.456%.
For CCOc1ccc(CC(=O)N(C)[C@H]2COC[C@@H]2O)cc1 the result was Mtb cholesterol medium: -4.743%.
For CN(C)c1cc(CNC(=O)C2CCOCC2)ccn1 the result was Mtb glucose medium: -5.101%.
For Cc1cc(C(=O)N2CCC(F)(F)CC2)cc(C)n1 the result was Mtb glucose medium: -1.645%.
For CC(C)Cn1cncc1CNC(=O)CN1CCOCC1 the result was Mtb glucose medium: 9.13%.
For COCCN(C)CCNC(=O)c1ccc(Cl)cc1 the result was Mtb glucose medium: 51.78%.
For CC(=O)c1c(C)cc(C)nc1C the result was Mtb glucose medium: 18.72%.
For Cn1c(=O)ccn(CC(=O)Nc2ncccc2O)c1=O the result was Mtb glucose medium: -2.146%.
For Cn1cc(Br)cc1C(=O)NCC1CCCO1 (stereo not drawn) the result was Mtb glucose medium: 62.11%.
For COC(C)c1cccc(NCCCS(C)(=O)=O)c1 (stereo not drawn) the result was Mtb cholesterol medium: 13%.

Some entries from above, unchanged:

Compound,Mtb glucose medium,Mtb cholesterol medium
CCn1cnnc1CNc1ncccc1F,12.47%,9.125%
COCCN(C)CCNC(=O)c1ccc(Cl)cc1,51.78%,-
Nc1ccn(Cc2ccccc2)n1,-,19.05%